Anti-infective test results gathered from many reports (values: NIAID ChemDB through PubChem).

Common to all: whole-cell or culture tests; species: Vaccinia virus; endpoint: EC50

Blank or dashed fields: not listed here. ECn is the concentration giving n% inhibition of infection, replication or growth. Neighbouring rows are from separate reports.

structure,strain,cell line,result
CC1(C)[C@H](CO)C[C@@H]1Cn1nnc2c(N)nc(N)nc21,,E6SM,50 µg/mL
Nc1ncnc2c1ncn2C[C@@H](CO)OCP(=O)(O)O,Copenhagen strain wild type,VERO 76,3.4 µM
CCCc1cn([C@H]2C[C@H](O)[C@@H](CO)S2)c(=O)[nH]c1=O,,E6SM,170 µM
Nc1nc(Cl)c2nnn(C[C@H]3CC[C@@H](CO)C3)c2n1,,E6SM,>200 µg/mL
Cn1cc(NC(=O)c2cc(NC(=O)CCCC(=O)Nc3cc(C(=O)Nc4cc(C(=O)NCCC(N)=[NH2+])n(C)c4)n(C)c3)cn2C)cc1C(=O)NCCC(N)=[NH2+],,VERO,110 µg/mL
Nc1nc(N)c2ncn(C3C[C@H](O)[C@@H](O)C3)c2n1,,ESM,150 µg/mL
NC(=O)c1ncn([C@@H]2O[C@H](CO)[C@@H](O)[C@H]2O)c1C#CCCO,,PRK,2 µg/mL
O=c1[nH]c(=O)n([C@H]2C[C@H](O)[C@@H](CO)O2)cc1/C=C/Br,,E6SM,5.8 µM
Nc1ccn(C[C@@H](CO)OCP(=O)(O)O)c(=O)n1,WR,HFF,45.8 µM
CC1(C)[C@H](CO)C[C@@H]1Cn1cnc2c(=O)[nH]c(N)nc21,,E6SM,>400 µg/mL
Cc1cn([C@H]2C[C@H](O)[C@@H](CO)O2)c(=O)[nH]c1=O,,E6SM,>2000 µM
Nc1nccc2c1ncn2[C@@H]1C[C@H](CO)[C@@H](O)[C@H]1O,,PRK,0.8 µg/mL
O=c1cnn([C@@H]2O[C@H](CO)[C@@H](O)[C@H]2O)c(=O)[nH]1,,VERO 76,4.3 µM
Nc1ncnc2c1ccn2[C@@H]1C[C@H](CO)[C@@H](O)[C@H]1O,,PRK,2 µg/mL
O=c1[nH]c(=O)n([C@H]2C[C@H](O)[C@@H](CO)O2)cc1/C=C/Br,,VERO,>500 µM
Nc1nccc2c1ncn2[C@@H]1C=C(CO)[C@@H](O)[C@H]1O,,PRK,0.07 µg/mL
CCCCOC(=O)C(C)NP(=O)(COCCn1cnc2c(NC3CC3)nc(N)nc21)NC(C)C(=O)OCCCC,WR,HFF,0.12 µM
O=c1[nH]c(=O)n([C@H]2C[C@H](O)[C@@H](CO)O2)cc1C1CCC1,,E6SM,850 µM
NC(=O)c1ncn([C@@H]2O[C@H](CO)[C@@H](O)[C@H]2O)n1,,PRK,20 µg/mL
Nc1ncnc2c1ncn2[C@@H]1C=C[C@@H](O)[C@H]1O,,PRK,0.7 µg/mL
NC(=O)c1ncn([C@H]2C=C[C@@H](CO)O2)n1,,,36 µg/mL
O=C1Nc2ccc(Cl)cc2[C@@](C#CC2CC2)(C(F)(F)F)O1,,HFF,>300 µM
Nc1ncnc2c1ncn2C[C@@H](CO)OCP(=O)(O)O,Lederle,HEL,0.17 µg/mL
CCCCCCCCCCCCCCCCOCCCOP1(=O)CO[C@@H](Cn2ccc(N)nc2=O)CO1,IHD,HFF,0.1 µM
C/C(=N\NC(=S)NNC(=S)c1ccc(Cl)cc1)C12CC3CC(CC(C3)C1)C2,,E6SM,>40 µg/mL
Nc1ncnc2c1ccn2[C@@H]1O[C@H](CO)[C@@H](O)[C@H]1O,,PRK,0.07 µg/mL
CCCCCCCCCCCCCCCCCCOCCOP1(=O)CO[C@@H](Cn2ccc(N)nc2=O)CO1,IHD,HFF,0.04 µM
C=CSC[C@H]1O[C@@H](n2cnc3c(N)ncnc32)[C@H](O)[C@@H]1O,,,30 µM
NC(=O)c1ncn([C@@H]2O[C@H](CO)[C@@H](O)[C@H]2O)n1,,PRK,20 µg/mL
Nc1ccn(C[C@@H](CO)OCP(=O)(O)O)c(=O)n1,,PRK,4 µg/mL
Nc1ccn(C[C@@H](CO)OCP(=O)(O)O)c(=O)n1,Copenhagen strain wild type,VERO 76,19 µM
O=c1[nH]c(=O)n([C@H]2C[C@H](O)[C@@H](CO)O2)cc1Cl,,PRK,0.2 µg/mL
Nc1nc(N)c2ncn(C[C@H]3CC[C@@H](CO)C3)c2n1,,E6SM,>400 µg/mL
O[C@H]1[C@@H](O)COC(n2cnc3cc(Cl)c(Cl)cc32)[C@@H]1O,,E6SM,>400 µg/mL
Nc1nc(N)c2ncn(CCOCP(=O)(O)O)c2n1,WR,HFF,128 µM
Nc1ncnc2c1ncn2[C@H]1[C@H](O)[C@H](O)[C@]2(CO)O[C@H]12,,PRK,0.1 µg/mL
OCCOC([C@H](O)CO)n1cnc2cc(Cl)c(Cl)cc21,,E6SM,>400 µg/mL
Nc1ncnc2c1ccn2[C@@H]1O[C@H](CO)[C@H](O)[C@H]1O,,HeLa,≥10 µg/mL
Nc1ccn(C[C@H]2COP(=O)(O)CO2)c(=O)n1,IHD,HFF,10.9 µM
O=c1[nH]c(=O)n([C@H]2C[C@H](O)[C@@H](CO)O2)cc1/C=C/Br,,E6SM,1 µg/mL
O=c1[nH]c(=O)n([C@H]2C[C@H](O)[C@@H](CO)O2)cc1C1CCCC1,,E6SM,810 µM
CCCCCCCCCCCCCCCCOCCCOP(=O)(O)CO[C@H](CO)Cn1ccc(N)nc1=O,WR,HFF,1.1 µM
O=c1[nH]c(=O)n([C@H]2C[C@H](O)[C@@H](CO)O2)cc1/C=C/Br,,E6SM,2 µg/mL
Clc1cc2nc[nH]c2cc1Cl,,E6SM,>10 µg/mL
Nc1ccn(C[C@H]2COP(=O)(O)CO2)c(=O)n1,,VERO 76,61 µM
Nc1ncnc2c1ncn2[C@@H]1C[C@H](CO)[C@@H](O)C1,,PRK,>100 µg/mL
Nc1ccn([C@H]2CC[C@@H](CO)O2)c(=O)n1,,HFF,>474 µM
O=c1[nH]cnc2c1ncn2[C@@H]1C=C(CO)[C@@H](O)[C@H]1O,,PRK,2 µg/mL
Cc1ccnc2c1NC(=O)c1cccnc1N2C1CC1,,HFF,>300 µM
Nc1nccc2c1ncn2[C@@H]1O[C@H](CO)[C@@H](O)[C@H]1O,,PRK,7 µg/mL
O=c1[nH]c(=O)n([C@H]2C[C@H](O)[C@@H](CO)S2)cc1C1CCC1,,E6SM,802 µM
NC(=O)c1ncn([C@@H]2O[C@H](CO)[C@@H](O)[C@H]2O)n1,Copenhagen strain wild type,VERO 76,21 µM
O[C@@H]1CC(n2cnc3cc(Cl)c(Cl)cc32)OC[C@@H]1O,,E6SM,>100 µg/mL
Nc1nccc2c1ncn2[C@@H]1C[C@H](CO)[C@@H](O)[C@H]1O,,E6SM,2 µg/mL
Nc1ncnc2c1ncn2[C@@H]1O[C@H](C#CCl)[C@@H](O)[C@H]1O,,E6SM,70 µM
Nc1ncnc2c1ncn2C[C@H](O)CO,,HeLa,70 µg/mL
CC(C)(C)C(=O)OCOP(=O)(COCCn1cnc2c(N)ncnc21)OCOC(=O)C(C)(C)C,WR,HFF,18.5 µM
C[C@H](O)[C@@H]1C[C@H](CCn2cnc3c(=O)[nH]cnc32)C1(C)C,,E6SM,>100 µg/mL
Nc1ccn([C@@H]2C[C@H](CO)[C@@H](O)[C@H]2O)c(=O)n1,,PRK,15 µg/mL
CCc1cn([C@H]2C[C@H](O)[C@@H](CO)S2)c(=O)[nH]c1=O,,E6SM,0.45 µM
OC[C@H]1O[C@H](n2cnc3cc(Cl)c(Cl)cc32)[C@@H](O)[C@H]1O,,E6SM,>200 µg/mL
CC(C)(C)NC(=O)[C@@H]1CN(Cc2cccnc2)CCN1C[C@@H](O)C[C@@H](Cc1ccccc1)C(=O)N[C@H]1c2ccccc2C[C@H]1O,,HFF,>300 µM
Nc1ncnc2c1ncn2[C@@H]1C=C(CO)[C@@H](O)[C@H]1O,,PRK,0.03 µg/mL
Nc1nc(NC2CC2)c2ncn(CCOCP(=O)(O)O)c2n1,NYC,HFF,12 µM
Nc1ncnc2c1ncn2C1CC(CO)[C@@H](O)[C@H]1O,,PRK,2 µg/mL
CCCCOC(=O)C(C)NP(=O)(COCCn1cnc2c(N)ncnc21)NC(C)C(=O)OCCCC,NYC,HFF,5.1 µM
Nc1nccc2c1ncn2[C@@H]1C[C@H](CO)[C@@H](O)[C@H]1O,,PRK,2 µg/mL

The last 7 rows once more:

structure	strain	cell line	result
OC[C@H]1O[C@H](n2cnc3cc(Cl)c(Cl)cc32)[C@@H](O)[C@H]1O		E6SM	>200 µg/mL
CC(C)(C)NC(=O)[C@@H]1CN(Cc2cccnc2)CCN1C[C@@H](O)C[C@@H](Cc1ccccc1)C(=O)N[C@H]1c2ccccc2C[C@H]1O		HFF	>300 µM
Nc1ncnc2c1ncn2[C@@H]1C=C(CO)[C@@H](O)[C@H]1O		PRK	0.03 µg/mL
Nc1nc(NC2CC2)c2ncn(CCOCP(=O)(O)O)c2n1	NYC	HFF	12 µM
Nc1ncnc2c1ncn2C1CC(CO)[C@@H](O)[C@H]1O		PRK	2 µg/mL
CCCCOC(=O)C(C)NP(=O)(COCCn1cnc2c(N)ncnc21)NC(C)C(=O)OCCCC	NYC	HFF	5.1 µM
Nc1nccc2c1ncn2[C@@H]1C[C@H](CO)[C@@H](O)[C@H]1O		PRK	2 µg/mL